Measurements from paper PMC1513218 (BMC Pharmacology, 2006).

Protein sequences, listed by entry. Tags and fused reporters are not part of them. Residues count along the entry.
UniProt P0DPI1, whole entry, looked up: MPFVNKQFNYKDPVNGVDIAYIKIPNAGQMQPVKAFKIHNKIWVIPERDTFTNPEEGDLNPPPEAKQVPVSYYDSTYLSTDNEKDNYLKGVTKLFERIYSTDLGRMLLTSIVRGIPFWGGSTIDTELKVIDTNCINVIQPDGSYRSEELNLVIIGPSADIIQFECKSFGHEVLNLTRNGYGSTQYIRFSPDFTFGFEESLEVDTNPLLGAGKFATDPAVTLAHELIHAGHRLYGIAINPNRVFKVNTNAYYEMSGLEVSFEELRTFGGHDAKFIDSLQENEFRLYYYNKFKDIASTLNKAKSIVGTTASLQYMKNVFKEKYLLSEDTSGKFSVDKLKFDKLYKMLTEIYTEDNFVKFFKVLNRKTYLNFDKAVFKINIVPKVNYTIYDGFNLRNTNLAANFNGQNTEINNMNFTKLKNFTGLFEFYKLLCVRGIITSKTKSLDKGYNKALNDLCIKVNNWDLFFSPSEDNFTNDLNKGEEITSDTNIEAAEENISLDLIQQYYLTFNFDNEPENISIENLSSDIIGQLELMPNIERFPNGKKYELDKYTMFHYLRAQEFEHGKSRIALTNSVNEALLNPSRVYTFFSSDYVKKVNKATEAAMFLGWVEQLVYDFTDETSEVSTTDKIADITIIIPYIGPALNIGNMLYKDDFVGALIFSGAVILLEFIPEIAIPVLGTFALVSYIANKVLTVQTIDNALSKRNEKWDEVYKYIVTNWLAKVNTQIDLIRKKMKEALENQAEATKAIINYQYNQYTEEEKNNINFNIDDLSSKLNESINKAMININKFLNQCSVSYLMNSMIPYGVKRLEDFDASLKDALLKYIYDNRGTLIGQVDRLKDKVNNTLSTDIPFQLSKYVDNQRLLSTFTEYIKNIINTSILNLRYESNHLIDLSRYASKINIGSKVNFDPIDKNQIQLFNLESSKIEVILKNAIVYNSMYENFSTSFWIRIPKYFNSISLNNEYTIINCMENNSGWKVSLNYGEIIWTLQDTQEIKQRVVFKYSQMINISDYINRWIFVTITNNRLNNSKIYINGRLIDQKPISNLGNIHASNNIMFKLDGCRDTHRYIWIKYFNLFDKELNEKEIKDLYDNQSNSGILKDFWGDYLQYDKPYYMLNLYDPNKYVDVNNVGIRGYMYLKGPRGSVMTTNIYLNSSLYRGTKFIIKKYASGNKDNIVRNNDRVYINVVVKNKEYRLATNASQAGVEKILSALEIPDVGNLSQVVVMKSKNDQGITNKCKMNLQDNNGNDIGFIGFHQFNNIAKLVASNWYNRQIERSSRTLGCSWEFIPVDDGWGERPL
UniProt P15917, 34-809 limits assumed: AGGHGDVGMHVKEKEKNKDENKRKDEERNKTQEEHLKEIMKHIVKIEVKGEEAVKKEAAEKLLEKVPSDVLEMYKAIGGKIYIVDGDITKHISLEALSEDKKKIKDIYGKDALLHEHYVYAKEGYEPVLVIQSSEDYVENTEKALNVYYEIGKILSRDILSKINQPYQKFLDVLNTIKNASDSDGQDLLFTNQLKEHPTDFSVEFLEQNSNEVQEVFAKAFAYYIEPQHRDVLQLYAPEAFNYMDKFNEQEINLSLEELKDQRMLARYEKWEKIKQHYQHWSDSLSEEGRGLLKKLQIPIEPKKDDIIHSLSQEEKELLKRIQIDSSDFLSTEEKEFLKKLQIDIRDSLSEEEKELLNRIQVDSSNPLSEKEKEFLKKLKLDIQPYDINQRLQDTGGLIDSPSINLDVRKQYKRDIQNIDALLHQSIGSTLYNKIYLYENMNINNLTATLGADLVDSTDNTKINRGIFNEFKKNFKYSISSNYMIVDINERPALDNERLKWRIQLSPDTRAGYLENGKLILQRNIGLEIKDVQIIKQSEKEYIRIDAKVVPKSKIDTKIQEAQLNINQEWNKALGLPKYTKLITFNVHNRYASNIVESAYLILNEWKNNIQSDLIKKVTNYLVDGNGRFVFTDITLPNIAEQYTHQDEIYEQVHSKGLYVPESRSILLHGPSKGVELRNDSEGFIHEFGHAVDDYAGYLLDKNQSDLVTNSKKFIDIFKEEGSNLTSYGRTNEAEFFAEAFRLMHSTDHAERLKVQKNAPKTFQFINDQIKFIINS

Columns and labels:
[1] = biological target: botulinum neurotoxin/A (BoNT/A) (Clostridium botulinum, UniProt P0DPI1); experiment: Botulinum neurotoxin/A FRET substrate cleavage assay (SNAPtide); format: biochemical; conditions: read-out: Bot IC50; SNAPtide 12.5 μM
[2] = biological target: anthrax lethal factor (LF) protease (Bacillus anthracis, UniProt P15917); experiment: Lethal Factor protease assay (FRET, MAPKKide substrate); format: biochemical; conditions: read-out: LF Kiapp; Mean ± SEM; MAPKKide 12.5 μM, LF 20 nM

`CSCC[C@H](NC(=O)[C@H](CCCCN)NC(=O)[C@@H](NC(=O)[C@H](C)NC(=O)[C@H](CCCNC(=N)N)NC(=O)[C@H](CS)NC(C)=O)[C@@H](C)O)C(=O)N[C@@H](CC(C)C)C(N)=O` showed an IC50 [1] of 3.5 µM and a Ki [2] of over 300 µM.
